A mixed list of measured activities; the numbers were collected in NIAID ChemDB.

Shared fields: host cell toxicity; cell line: CEM; read-out: CC50

CCn: concentration that lowers growth or viability of the cells by n%. Neighbouring rows are from separate reports. Blank or dashed fields: not listed here.

structure,method,result
CCC(C)OC(=S)Nc1ccc(Cl)c(C(=O)OC(C)(C)C)c1,,23.26 µM
Cc1ccc(C)c(C(C#N)Sc2cccc[n+]2[O-])c1,cell count,34 µg/mL
C/C(=N\NC(=O)CN1c2c(-c3ccccc3)n[nH]c2-c2ccccc2S1(=O)=O)c1ccc([N+](=O)[O-])s1,MTS,5 µM
CC(C)(C)NC(=O)[C@@H]1CN(Cc2cccnc2)CCN1C[C@H](C[C@@H](Cc1ccccc1)C(=O)N[C@H]1c2ccccc2C[C@H]1OC(=O)CCCCOc1ccc(C[C@H](N)C(=O)O)cc1)OC(=O)CCCCOc1ccc(C[C@H](N)C(=O)O)cc1,MTT,>100 µM
C/C(=N\NC(=O)CN1c2c(-c3ccccc3)n[nH]c2-c2ccccc2S1(=O)=O)c1ccc(Br)s1,MTS,<1 µM
O=C(Nc1ccc(C[C@H](NC(=O)c2ccccc2SSc2ccccc2C(=O)N[C@@H](Cc2ccc(NC(=O)OCc3ccccc3)cc2)C(=O)O)C(=O)O)cc1)OCc1ccccc1,,>100 µM
CC(C)NS(=O)(=O)c1ccc(NC(=O)c2ccccc2SSc2ccccc2C(=O)Nc2ccc(S(=O)(=O)NC(C)C)cc2)cc1,,38 µM
CC(C)(C)NC(=O)[C@@H]1CN(Cc2cccnc2)CCN1C[C@@H](O)C[C@@H](Cc1ccccc1)C(=O)N[C@H]1c2ccccc2C[C@H]1OC(=O)CCCCOc1ccc(C[C@H](NC(=O)OC(C)(C)C)C(=O)O)cc1,MTT,>100 µM
CC(=O)ONc1ccc(S(=O)(=O)N(Cc2ccccc2)C[C@@H](O)[C@H](Cc2ccccc2)NC(=O)CCc2c[nH]c3ccccc23)cc1,MTT,>100 µM
CC(C)OC(=O)c1cc(NC(=S)OC(C)(C)C)ccc1Cl,,87.92 µM
O=S(=O)(Cc1ccccc1)c1ncccc1O,cell count,>100 µg/mL
Nc1nc2c(ncn2[C@@H]2O[C@H](CO)C(F)(F)C2(F)F)c(=O)[nH]1,,>100 µM
Cc1c(O)cccc1C(=O)N[C@@H](CSc1ccccc1)[C@@H](CN1C[C@H]2CCCC[C@H]2C[C@H]1C(=O)NC(C)(C)C)OC(=O)NCCCCOc1ccc(C[C@H](N)C(=O)O)cc1,MTT,>100 µM
CCNC(=O)c1ccccc1SSc1ccccc1C(=O)NCC,,5.1 µM
CC(C)[C@@H](/C=C/C(=O)O)NC(=O)c1ccccc1SSc1ccccc1C(=O)N[C@H](/C=C/C(=O)O)C(C)C,,74 µM
CC(C)(C)OC(=O)c1cc(NC(=S)OC(C)(C)C)ccc1Cl,,122.1 µM
CCCCCCCCCCCC(c1cc(C)ccc1C)S(=O)(=O)c1cccc[n+]1[O-],cell count,88 µg/mL
O=C(NC1(C(=O)O)CCCCC1)c1ccccc1SSc1ccccc1C(=O)NC1(C(=O)O)CCCCC1,,25.6 µM
C=C(C)[C@@H]1CC[C@]2(C(=O)NCCCCCCCNC(=O)c3ccc(C(=O)O)cc3)CC[C@]3(C)[C@H](CC[C@@H]4[C@@]5(C)CC[C@H](O)C(C)(C)[C@@H]5CC[C@]43C)[C@@H]12,,2.97 µM
CC[C@H](C)[C@@H](/C=C/C(=O)O)NC(=O)c1ccccc1SSc1ccccc1C(=O)N[C@H](/C=C/C(=O)O)[C@@H](C)CC,,70 µM
C=C(C)[C@@H]1CC[C@]2(C(=O)NCCCCCCCC(=O)O)CC[C@]3(C)[C@H](CC[C@@H]4[C@@]5(C)CC[C@H](O)C(C)(C)[C@@H]5CC[C@]43C)[C@@H]12,,>3 µM
CC(C)CN(C[C@@H](O)[C@H](Cc1ccccc1)NC(=O)CCN1C(=O)c2ccccc2C1=O)S(=O)(=O)c1ccc(Br)cc1,MTT,>100 µM
Cc1cc(Cl)cc2c1S(=O)(=O)n1c(C)cnc1S2,,>200 µM
Nc1ncnc2c1ncn2[C@@H]1O[C@H](CO)C(F)(F)C1(F)F,,>100 µM
CCC(C)[C@@H](C(=O)O)N(C)C(=O)c1ccccc1SSc1ccccc1C(=O)N(C)[C@H](C(=O)O)C(C)CC,,>100 µM
Cc1ccc(C)c(CS(=O)(=O)c2ncccc2O)c1,cell count,>100 µg/mL
CCCSC(=Nc1ccc(Cl)c(C(=O)OC(C)C)c1)OC(C)C,,131 µM
COc1cc2ccnc3c2c(c1OC)N(CCC(C)C)C=C3,,16.3 µM
CC(C)(C)OC(=O)[C@H](CC(N)=O)NC(=O)c1ccccc1SSc1ccccc1C(=O)N[C@@H](CC(N)=O)C(=O)OC(C)(C)C,,>100 µM
CC(C)C[C@@H](C(=O)N[C@@H](Cc1ccccc1)[C@H](O)CN(CC(C)C)S(=O)(=O)c1ccc(Br)cc1)N1C(=O)c2ccccc2C1=O,MTT,>100 µM
CN(C)CCCNC(=O)c1ccccc1SSc1ccccc1C(=O)NCCCN(C)C,,25 µM
C=CCOc1cc(NC(=S)OC(C)C)ccc1Cl,,15.4 µM
O=C(O)CC[C@@H](NC(=O)c1ccccc1SSc1ccccc1C(=O)N[C@H](CCC(=O)O)C1CCCCC1)C1CCCCC1,,24 µM
CC[C@@H](C)OC(=S)Nc1ccc(Cl)c(C(=O)OC(C)C)c1,,30.32 µM
O=[N+]([O-])c1ccccc1CS(=O)(=O)c1cccc[n+]1[O-],cell count,13 µg/mL
CC(C)CN(C[C@@H](O)[C@H](Cc1ccccc1)NC(=O)[C@H](C)N1C(=O)c2ccccc2C1=O)S(=O)(=O)c1ccc(Br)cc1,MTT,>100 µM
O=C1NC(=O)C(CSCc2cccs2)(CSCc2cccs2)N1,,>100 µM
O=S(Cc1ccccc1)c1c(Cl)ccc[n+]1[O-],cell count,3.7 µg/mL
CNC(=O)c1ccccc1SSc1ccccc1C(=O)NC,,11 µM
Clc1ccc(CSc2ccccn2)cc1,cell count,1.2 µg/mL
C=C(C)[C@@H]1CC[C@]2(C(=O)NCCCCCCCC(=O)NC(C)C(=O)O)CC[C@]3(C)[C@H](CC[C@@H]4[C@@]5(C)CC[C@H](O)C(C)(C)[C@@H]5CC[C@]43C)[C@@H]12,,>3 µM
Oc1cccnc1SCc1ccccc1,cell count,35 µg/mL
O=C1NC(=O)C(CSCc2ccc([N+](=O)[O-])cc2)(CSCc2ccc([N+](=O)[O-])cc2)N1,,>9 µM
CCCCCCCC/C=C\CCCCCCCC(=O)O[C@H](CN1C[C@H]2CCCC[C@H]2C[C@H]1C(=O)NC(C)(C)C)[C@H](Cc1ccccc1)NC(=O)[C@H](CC(N)=O)NC(=O)c1ccc2ccccc2n1,MTT,>100 µM
COc1ccc2c(c1)OCC1c3cc(OC)c(OCc4ccccc4)cc3OC21,,69.4 µM
C=C(C)[C@@H]1CC[C@]2(C(=O)NCCCCCCCNC(=O)c3ccccc3C(=O)O)CC[C@]3(C)[C@H](CC[C@@H]4[C@@]5(C)CC[C@H](O)C(C)(C)[C@@H]5CC[C@]43C)[C@@H]12,,>3 µM
CC(C)(C)NC(=O)c1ccccc1SSc1ccccc1C(=O)NC(C)(C)C,,>100 µM
CCCCCCC[n+]1ccc2cc(OC)c(OC)c3c2c1C=CN3,,3.5 µM
CC(C)C[C@H](NC(=O)OC(C)(C)C)C(=O)O[C@H](CN1C[C@H]2CCCC[C@H]2C[C@H]1C(=O)NC(C)(C)C)[C@H](Cc1ccccc1)NC(=O)[C@H](CC(N)=O)NC(=O)c1ccc2ccccc2n1,MTT,>100 µM
N#Cc1cc2c(cc1Cl)Sc1nccn1S2(=O)=O,,1.1 µM
Cc1ccc(C)c(CSc2ncccc2O)c1,cell count,39 µg/mL
CC(C)OC(=S)Nc1ccc(Cl)c(C(=O)OCC[Si](C)(C)C)c1,,50.81 µM
Cc1ccc(C)c(C(C)Sc2cccc[n+]2[O-])c1,cell count,74 µg/mL
Nc1ncnc2c1ncn2C1OC(CO)C=C1F,,>100 µM
CC(=O)COc1cc(NC(=S)OC(C)C)ccc1Cl,,60.27 µM
COc1cc2ccnc3c2c(c1OCCCCCCCCCOc1c(OC)cc2ccnc4c2c1N(C)C=C4)N(C)C=C3,,<1 µM
COc1ccc2c(c1)OCC1c3cc(O)c(OCC(C)C)cc3OC21,,24.5 µM
Cc1ccccc1OC(=O)c1cc(NC(=S)OC(C)C)ccc1Cl,,129 µM
O=C1NC(=O)C(COCc2ccccc2)(COCc2ccccc2)N1,,>100 µM
C/C(=N\NC(=O)CN1c2c(-c3ccccc3)n[nH]c2-c2ccccc2S1(=O)=O)c1cccs1,MTS,23.3 µM
CCc1ccc(CS(=O)(=O)c2cccc[n+]2[O-])cc1,cell count,16 µg/mL
CC[C@@H](C)[C@@H](NC(=O)c1ccccc1SSc1ccccc1C(=O)N[C@@H](C(=O)O)[C@H](C)CC)C(=O)O,,113 µM
Cc1ccc(C(C)S(=O)c2cccc[n+]2[O-])c(Cl)c1,cell count,0.28 µg/mL
O=C(c1ccccc1SSc1ccccc1C(=O)N1CCOCC1)N1CCOCC1,,50 µM
CCOC(=O)c1cc(NC(=S)OC(C)C)ccc1C,,>355.4 µM
O=C1NC(=O)C(CSCc2ccc(Br)cc2)(CSCc2ccc(Br)cc2)N1,,>16 µM
CCC(=O)c1ccc(NC(=O)c2ccccc2SSc2ccccc2C(=O)Nc2ccc(C(=O)CC)cc2)cc1,,105 µM
CCC(C)Oc1ccc(NC(=O)c2ccccc2SSc2ccccc2C(=O)Nc2ccc(OC(C)CC)cc2)cc1,,>120 µM
COc1cc2ccnc3c2c(c1O)N(C)C=C3,,1.4 µM
O=C(Nc1ncccn1)c1ccccc1SSc1ccccc1C(=O)Nc1ncccn1,,6.2 µM
CC(C)OC(=O)c1cc(NC(=S)N(C)C(C)C)ccc1Cl,,>303.2 µM
CNC(=O)c1ccccc1SSc1ccccc1C(=O)NC,,11 µM
CC(=O)ONc1ccc(S(=O)(=O)N(CC(C)C)C[C@@H](O)[C@H](Cc2ccccc2)NC(=O)c2ccc(-c3ccc(Cl)cc3)o2)cc1,MTT,30 µM
Cc1ccccc1C(Sc1cccc[n+]1[O-])C(N)=O,cell count,>100 µg/mL
Cc1cn([C@@H]2O[C@H](CO)C(F)(F)C2(F)F)c(=O)[nH]c1=O,,>100 µM
CCCCCCCCS(=O)(=O)Oc1c(OC)cc2ccnc3c2c1N(C)C=C3,,1.3 µM
CC(=O)ONc1ccc(S(=O)(=O)N(CC(C)C)C[C@@H](O)[C@H](Cc2ccccc2)NC(=O)CN2C(=O)c3ccccc3C2=O)cc1,MTT,>100 µM
NCCCC[C@H](NC(=O)c1ccccc1SSc1ccccc1C(=O)N[C@@H](CCCCN)C(=O)O)C(=O)O,,>100 µM
C/C(=N\NC(=O)CN1c2c(-c3ccccc3)n[nH]c2-c2ccccc2S1(=O)=O)c1ccc(C)o1,MTS,15.4 µM
COc1ccc(CS(=O)c2cccc[n+]2[O-])cc1OC,cell count,1.3 µg/mL
Nc1ccccc1SSc1ccccc1N,,53 µM
COc1ccc(NC(=S)OC(C)C)cc1CC(=O)OC(C)C,,23.66 µM
CC(C)OC(=O)[C@H](C)NP(=O)(OC[C@H]1O[C@@H](n2ccc(N)nc2=O)C(F)(F)C1(F)F)Oc1ccccc1,,>100 µM
O=C(Nc1ccc(S(=O)(=O)Nc2ncccn2)cc1)c1ccccc1SSc1ccccc1C(=O)Nc1ccc(S(=O)(=O)Nc2ncccn2)cc1,,30 µM
Cc1c(Cl)c(Cl)c(CS(=O)(=O)c2cccc[n+]2[O-])c(Cl)c1Cl,cell count,2 µg/mL
Cc1cc(Cl)cc2c1S(=O)(=O)n1ccnc1S2,,>200 µM
C=CCC(c1cc(C)ccc1C)S(=O)(=O)c1cccc[n+]1[O-],cell count,38 µg/mL
NC(=O)c1ccc(NC(=O)c2ccccc2SSc2ccccc2C(=O)Nc2ccc(C(N)=O)cc2)cc1,,>100 µM
Cc1ccc(CS(=O)(=O)c2cccc[n+]2[O-])c(C)c1,cell count,16 µg/mL
NC(=O)CCNC(=O)c1ccccc1SCc1ccc(OP(=O)(O)O)cc1,XTT,>50 µM
CC(c1ccccc1)S(=O)c1cccc[n+]1[O-],cell count,1.4 µg/mL
COc1ccc2c(c1)OCC1c3ccc(OCc4ccccc4)cc3OC21,,200 µM

Repeating the final 10 entries:

structure	method	result
CC(C)OC(=O)[C@H](C)NP(=O)(OC[C@H]1O[C@@H](n2ccc(N)nc2=O)C(F)(F)C1(F)F)Oc1ccccc1		>100 µM
O=C(Nc1ccc(S(=O)(=O)Nc2ncccn2)cc1)c1ccccc1SSc1ccccc1C(=O)Nc1ccc(S(=O)(=O)Nc2ncccn2)cc1		30 µM
Cc1c(Cl)c(Cl)c(CS(=O)(=O)c2cccc[n+]2[O-])c(Cl)c1Cl	cell count	2 µg/mL
Cc1cc(Cl)cc2c1S(=O)(=O)n1ccnc1S2		>200 µM
C=CCC(c1cc(C)ccc1C)S(=O)(=O)c1cccc[n+]1[O-]	cell count	38 µg/mL
NC(=O)c1ccc(NC(=O)c2ccccc2SSc2ccccc2C(=O)Nc2ccc(C(N)=O)cc2)cc1		>100 µM
Cc1ccc(CS(=O)(=O)c2cccc[n+]2[O-])c(C)c1	cell count	16 µg/mL
NC(=O)CCNC(=O)c1ccccc1SCc1ccc(OP(=O)(O)O)cc1	XTT	>50 µM
CC(c1ccccc1)S(=O)c1cccc[n+]1[O-]	cell count	1.4 µg/mL
COc1ccc2c(c1)OCC1c3ccc(OCc4ccccc4)cc3OC21		200 µM